Laboratory results reported in US20020192223A1 (priority 1989, published 2002).

Tests used:
Assay in all cases: Inhibition of protein synthesis ([3H]-leucine), Example 13
[1] = system: RCA cells; type: cell-based, human; conditions: colon Ca., BR96 antigen positive
[2] = system: MCF-7 cells; type: cell-based, human
[3] = system: A2780 cells; type: cell-based, human; conditions: A2780, ovarian Ca., BR96 antigen negative
[4] = system: L2987 cells; type: cell-based, human; conditions: L2987, lung Ca., BR96 antigen positive
[5] = system: KB cells; type: cell-based, human; conditions: epidermoid Ca., BR96 antigen negative
[6] = system: L929 cells; type: cell-based; conditions: L929, mouse Fblst, BR96 antigen negative

Substance: Pseudomonas exotoxin A
- EC50 [1]: 380 pM
- EC50 ([2]; MCF-7, breast Ca., BR96 antigen positive): 200 pM
- EC50 ([2]; MCF-7, 1 hour incubation): > 10000 pM
- EC50 ([2]; MCF-7, 20 hours): 200 pM
- EC50 [3]: 60 pM
- EC50 [4]: 140 pM
- EC50 [5]: 227 pM
- EC50 [6]: 3 pM
